Test system: purified IgGs from human sera
Assay: Ribosome display screening with purified human IgGs
Assay type: binding
Conditions: for No. of selected clones per ORF and screen: D: Ribosome display: D; for No. of selected clones per ORF and screen: screen D: ribosome display
[1] = ORFs selected by ribosome display only (screen D)
[2] = LSE150 in pMAL4.31 with P2 (1235)
[3] = LSA250/1 library with IC sera (1686)
[4] = identified by ribosome display (screen D)

| Molecule | Location of identified Immunogenic region [1] | No. of selected clones per ORF and screen: D [2] | No. of selected clones per ORF and screen: D [3] | Location of identified Immunogenic region [4] | No. of selected clones per ORF and screen [3] |
| --- | --- | --- | --- | --- | --- |
| CRF0001 (RLRYTSYIIKLAATDAFKLLTCPTIGILI) | aa 5-21 | D: 3 | – | – | – |
| CRF1845 (MLLSYFIILISFLCILLTFIYFFPLTSMTFFFYSYFRFV) | – | – | D: 272 | aa 1-17 | – |
| Hypothetical protein [compound 0337] | – | – | – | – | D: 12 |
| CRF0003 (RSVPHIVVLTMRIIASVLLVIVGFSLSVSCA) | aa 4-31 | D: 3 | – | – | – |
| CRF0008 (RNSNQMYQTFTADIVLIFMIIVLGGLVVQVPMPILAGIMVMVSETIYCLHL) | aa: 9-44 | D: 4 | – | – | – |
| Conserved hypothetical protein [compound 2254] | – | – | – | – | D: 3 |
| YycH protein [compound 2466] | – | – | – | – | D: 14 |
| CRF2664 (VTNITLNSAFADATISVFLYQVRY) | – | – | D: 17 | aa 1-14 | – |
| ARF0183 (KRLVMQQHLQFNLPKIILLNALTKRFLSLLVTQLVMVFILVVSLLKVPVQLQ; listed as Staphylococcus epidermidis) | aa 1-52 | D: 4 | – | – | – |
| CRF2578 (RYKGKAKCISLLRMIVLFLIIAFHCNDGRRMVCKQMICIFTF) | – | – | D: 11 | aa 9-30 | – |
| ARF2455 (LRLRQFQLLCTLVLLMLVALFLHAFLRYLMTK; listed as Staphylococcus epidermidis) | aa 1-22 | D: 3 | – | – | – |
| CRF0538 (LSICIIIIIHAIIFVHIIKNGIQNNN) | – | – | D: 7 | aa 1-11 | – |
| CRF0337 (MLTTFAVVLIFFLLPSSFLL) | – | – | D: 3 | aa 1-20 | – |
| CRF2356 (MCRNCPAFTSCFIRDIIVKCF) | – | – | D: 3 | aa 3-18 | – |
| CRF2553 (LIVISNVIAIILIFICFVCTIILLIIFFGFCLFMRRFIFLFLVIT) | – | – | D: 4 | aa 1-20 | – |
| CRF2863/1 (LCSSSLVTILKLLFCISQLFKFLIRILFTLICTFILIFSFFKFCIR) | – | – | D: 78 | aa 17-40 | – |
| CRF0007 (LKNILRIVFIAGLTVFFSGPGQTYSNAAFIDEYIQTFGWSRTEV) | aa 7-44 | D: 3 | – | – | – |
| CRF0009 (NQRLEETISSPHHSSAL) | aa 5-14 | D: 3 | – | – | – |
| CRF0005 (FFCRLTQLNWLKYLSVRMLYMYFMIFSIMNHIVSTIC) | aa: 9-33 | D: 3 | – | – | – |
| Hypothetical protein [compound 2740] | – | – | – | – | D: 4 |
| ORF2087 | – | – | D: 3 | aa 126-147 | – |
| Yfix [compound 944] | – | – | – | – | D: 4 |

| Molecule | Location of identified Immunogenic region [1] | No. of selected clones per ORF and screen: D [2] | No. of selected clones per ORF and screen: D [3] | Location of identified Immunogenic region [4] | No. of selected clones per ORF and screen [3] |
| --- | --- | --- | --- | --- | --- |
| Conserved hypothetical protein [compound 2664] | – | – | – | – | D: 35 |
| CRF2207 (MTCEKLENFLTSSKAGTNDNTNKGKCHNNGLF) | – | – | D: 3 | aa 17-39 | – |
| CRF1356 (LPIPSTRSAPIIPAINATMTVLNHGNLGLLYLGVWLWFVVE) | – | – | D: 5 | aa 5-33 | – |
| Conserved hypothetical protein [compound 2815] | – | – | – | – | D: 21 |
| ARF0172 (QVLKMLQNILLLMLLLLMLKIKVLIYLIMTLLNQFRDMVLKLRFINNKSLWAIEN; listed as Staphylococcus epidermidis) | aa 3-32 | D: 6 | – | – | – |
| CRF2863/2 (LPSCLYCSTSALCLADCFCTASLALFSCAVVAWLLFLSFCSASLNCLSF) | – | – | D: 78 | aa 44-49 | – |
| CRFN1 (IENADDNFNQLYENAKPLKENIE) | – | – | D: 4 | aa 94-116 | – |
| CRF1861 (IQRFRNKCFQTTLKWIAVLCLIYFVAITFTYTIITTMKIVIDCNYIVDINIIR) | – | – | D: 8 | aa 4-27 | – |
| Hexose transporter [compound 2670] | – | – | – | – | D: 16 |
| Hypothetical protease [compound 1356] | – | – | – | – | D: 12 |
| CRF2452 (VVYNATYMHLVHVFLIVASLMLILLTNHAYALPH) | – | – | D: 9 | aa 7-21 | – |
| ORF1523 (protein, listed as Staphylococcus aureus) MSVEIESIEHELEESIASLRQAGVRITPQRQAILRYLISSHTHPTADEIYQALSPDFPNISVATIYNNLRVFKDIGIVKELTYGDSSSRFDFNTHNHYHIICEQCGKIVDFQYPQLNEIERLAQHMTDFDVTHHRMEIYGVCKECQDK | – | – | D: 3 | aa 120-135 | – |
| ORF2192 (protein, listed as Staphylococcus aureus) MMYGYPEKWLEGMTTGEGIAAELRLGIVNGHIAEGTLLTENQMAKQFNVSRSPIRDAFKLLQQNQLIQLERMGAHVLPFGEQEKKEMYDLRLMLESFAFSRVKNQERLPIVKEMKKQLEMMKVAVKFEDAESFTKHDFEFHETLIKASNHQYLNSFWSHLKPVMMALVLTSMRQRMQQNPQDFERIHHNHQVFIDAVEQYDSQILKEAFHLNFDDVGKDIEGFWLN | – | – | D: 3 | aa 15-35 | – |
| CRF1145 (protein) ASHFSFHLIQYKQIILNIFRSTVASILLFFCLLFMIYFRTVKFFLNFLIINDFCFYMAFNRKRHILSFLK | – | – | D: 28 | aa 16-32 | – |
| ORF2553 (protein, listed as Staphylococcus aureus) MNKVIKMLVVTLAFLLVLAGCSGNSNKQSSDNKDKETTSIKHAMGTTEIKGKPKRVVTLYQGATDVAVSLGVKPVGAVESWTQKPKFEYIKNDLKDTKIVGQEPAPNLEEISKLKPDLIVASKVRNEKVYDQLSKIAPTVSTDTVFKFKDTTKLMGKALGKEKEAEDLLKKYDDKVAAFQKDAKAKYKDAWPLKASVVNFRADHTRIYAGGYAGEILNDLGFKRNKDLQKQVDNGKDIIQLTSKESIPLMNADHIFVVKSDPNAKDAALVKKTESEWTSSKEWKNLDAVKNNQVSDDLDEITWNLAGGYKSSLKLIDDLYEKLNIEKQSK | – | – | D: 3 | aa 1-22 | – |
| ORF2610 (protein, listed as Staphylococcus aureus) MKRLFDVVSSIYGLVVLSPILLITALLIKMESPGPAIFKQKRPTINNELFNIYKFRSMKIDTPNVATDLMDSTSYITKTGKVIRKTSIDELPQLLNVLKGEMSIVGPRPALYNQYELIEKRTKANVHTIRPGVTGLAQVMGRDDITDDQKVAYDHYYLTHQSMMLDMYIIYKTIKNIVTSEGVHH | – | – | D: 13 | aa 114-141 | – |
| CRF1783 (protein) CRINTAFTSIASIWILSLCVCCYRCCWLRCCWSIRWLCLICRCCIIIRCCLVISLTCLVCRCCLISRLCLCSVIRISLITLSSWLCIWLCCSSCWISLSTLVCWLYCWLSLVGRCSWLCCRISLSTSICVRLCIGISWLCWLILCRLILLCCRRCCRVSRYKSNSGN | – | – | D: 5 | aa 76-127 | – |
| ORF2780 (protein, listed as Staphylococcus aureus) MKKQVIISGLMLFSLFFGAGNLIFPPMLGHTAGQNMWIGMLGFALTGILLPFITVIVVAFYDEGVESVGNRIHPWFGFIFAVVIYMSIGAFYGIPRAANVAYEIGTRHILPVHNQWTLIIFAAIFFAIVYWISLNPSKIVDNLGKLLTPLLLLMVALLSIAVIFNPESALSAPKDKYITHPFISGSLEGYFTMDLVAALAFSVVIVNGYKFKGLTDRMKILKYVCFSGLIAAILLGMIYFALAYVGASTAPGNFKDGTDILTYNSLRLFGSFGNLVFGMTVILACLTTCIGLVNACATFTKKHVPKFSYKIFALIFSIIGFLFTTLGLEMILKIAVPLLTLIYPVSIALVLISFANMFSTFRFSWAYRLATVITLIISILQILNSFNLLHGVILKSFMMLPLADIDLAWLVPFMLFAIIGFIIDVFIRRPKQATT | – | – | D: 3 | aa 26-40 | – |
| CRFA002 (protein) CAIIPPIEGPNPSPKATIDPIKPKALPCFFLVIFLATTTIISEGNAADPTPCTNLPKIKIKK | – | – | D: 3 | aa 38-55 | – |
| ORF0307 (protein, listed as Staphylococcus aureus) MLFYLFHFTISFISTVLFSIIFNAPKRLLVACGFVGAIAWTIYQLTVDLEFGKVGASFLGSLILGLMSHTMSRRYKRPVIIFIVPGIIPLVPGGAAYQATRFLVSNDYTSAVNTFLEVTLISGAIAFGILVSEILYYLYTRIKQLYGKIKGKTYKKSYNMNNRV | – | – | D: 3 | aa 9-44 | – |
| ORF0456 (protein, listed as Staphylococcus aureus) MNHNVIIVIALIIVVISMLAMLIRVVLGPSLADRVVALDAIGLQLMAVIALFSILLNIKYMIVVIMMIGILAFLGTAVFSKFMDKGKVIEHDQNHTD | – | – | D: 66 | aa 1-21 | – |

— patent publication US7968297B2, “Method for identification, isolation and production of antigens to a specific pathogen” (Intercell AG, priority 2001, dated 2011)
